Test results from paper PMC10213809 (Cell Reports Medicine, 2023).

Tested on: TBK-IRF3 signaling cascade
Assay type: cell-based, human
Details: HFF-1

Substance: IFN-β
- phospho-STAT1 (Tyr701) (western blot): strongly induced
- phospho-TBK1 (Ser172) (western blot): strongly induced
